Values of other authors as cited in PMC6889097 (Virologica Sinica, 2019).

System: lethal influenza virus infection
Settings: mouse, cited from earlier work

## CC(C)Cc1ccc(C(C)C(=O)O)cc1 (centres unmarked) [Ibuprofen, ibuprofen]
In vivo
  reported effect on survival rate of influenza-infected mice: no improvement on the survival rate
  In vivo: the protective effect of mice from lethal influenza infection: ±
